Compound potency records, mixed from different reports. Data source: NIAID ChemDB in PubChem.

Shared fields: growth or infection tests; species: HIV-1; cell line: C8166; endpoint: EC50

Lines come from different laboratories, so protocols vary. ECn is the concentration giving n% inhibition of infection, replication or growth. a–b is a range or a potency band. Blank or dashed fields: not listed here.

smiles | strain | changes | method | conditions | result
Cc1cn([C@H]2C[C@H](N=[N+]=[N-])[C@@H](CO)O2)c(=O)[nH]c1=O | IIIB |  |  |  | 0.003 µg/mL
O=C1c2ccccc2C(=O)N1CCOC(=S)Nc1ccc(Cl)cc1 | IIIB |  | p24 |  | <0.04 µM
CCN1c2ncc(CCOc3ccc(C(=O)O)c4ccccc34)cc2C(=O)N(C)c2ccc(Cl)nc21 | WT |  | p24 |  | <0.1 µM
O=c1[nH]cnc2c1ncn2[C@H]1CC[C@@H](CO)O1 | RF |  | p24 |  | >21 µM
CC(C)(C)[Si](C)(C)OC[C@H]1O[C@@H](n2cnc3c(N)ncnc32)[C@H](O[Si](C)(C)C(C)(C)C)C12OS(=O)(=O)C=C2N | IIIB |  | syncytia |  | 0.4 µg/mL
CC1(C)C(=O)CCC2[C@]34CC[C@]5(C)C(=O)CC[C@@]5(C)C3C=C[C@@]21OC4=O | IIIB |  |  |  | 61.3 µg/mL
CCN1c2ncc(CCOc3ccc(C(=O)O)c4ccccc34)cc2C(=O)N(C)c2cccnc21 | WT |  | p24 |  | <0.1 µM
COc1cc2oc(=O)ccc2cc1C[C@@H](OC)C(C)(C)O |  |  | MTT / syncytia |  | 6.28 µM
CCc1c(CC2CCCCC2)nc(SCC(=O)c2ccccc2)[nH]c1=O | NL4-3 | Y181C | p24 / ELISA |  | 0.241 µM
Cc1cn([C@H]2C[C@H](N=[N+]=[N-])[C@@H](CO)O2)c(=O)[nH]c1=O | RF |  | p24 |  | 0.06 µM
C=C(/C=C/P(=O)(O)O)CCn1cnc2c(=O)[nH]c(N)nc21 | RF |  | p24 |  | 8 µM
C/C=C/C(=O)O[C@@H]1[C@@H](O)[C@]2(OC(C)=O)[C@H]([C@@H]3C=C(COC(C)=O)C[C@]4(O)C(=O)C(C)=C[C@H]4[C@@]13O)C2(C)C | IIIB |  | p24 / ELISA |  | 2.18 µM
C=C(CO)[C@@H]1Cc2cc3ccc(=O)oc3cc2O1 |  |  | MTT / syncytia |  | 9.08 µM
Cn1cnc2ncn([C@@H]3O[C@H](CO[Si](C)(C)C(C)(C)C)C4(OS(=O)(=O)C=C4N)[C@H]3O[Si](C)(C)C(C)(C)C)c2c1=O | IIIB |  | syncytia |  | 0.1 µg/mL
CC1(C)C=Cc2cc3cc(O)c(=O)oc3cc2O1 |  |  | MTT / syncytia |  | 1.87 µM
CC(=O)O[C@@H]1[C@@H](C)[C@@]2(O)[C@@H](C=C(CO)C[C@]3(O)C(=O)C(C)=C[C@@H]23)[C@@H]2C(C)(C)[C@]12OC(=O)CCCCn1ccc(=O)n(CCCCOC(=O)[C@@]2(C)CC[C@]3(C)CC[C@]4(C)C(=CC(=O)[C@@H]5[C@@]6(C)CC[C@H](C)C(C)(C)[C@@H]6CC[C@]54C)[C@@H]3C2)c1=O | IIIB |  | p24 / ELISA |  | 75.87 µM
CC(C)(C)NC(=O)[C@@H]1C[C@@H]2CCCC[C@@H]2CN1C[C@@H](O)[C@H](Cc1ccccc1)NC(=O)[C@H](CC(N)=O)NC(=O)c1ccc2ccccc2n1 | MN |  | ELISA |  | 0.001 µg/mL
C=C(CC(=O)O)c1ccc(OCCc2cnc3c(c2)C(=O)N(C)c2cccnc2N3CC)c2ccccc12 |  | RT-K103N Y181C | p24 |  | 0.1–1 µM
O=[N+]([O-])c1ccc2c(ccn2-c2ccccc2[N+](=O)[O-])c1 | IIIB |  | syncytia |  | 11.24 µg/mL
COc1cc2c(c(OC)c1OC)-c1c(cc(OC(C)=O)c(OC)c1OC)[C@H](OC)[C@@H](C)[C@@H](C)C2 |  |  | MTT |  | 2.26 µg/mL
CCCCCCCCCC(=O)O[C@@H]1[C@@H](C)[C@@]2(O)[C@@H](C=C(CO)C[C@]3(O)C(=O)C(C)=C[C@@H]23)[C@@H]2C(C)(C)[C@]12OC(=O)CCCCCCCCC | IIIB |  | p24 / ELISA |  | 3.18 µg/mL
O=[N+]([O-])c1ccccc1-n1ccc2ccccc21 | IIIB |  | syncytia |  | 7.88 µg/mL
CC(C)=CC(=O)C[C@@H](C)[C@H]1CC[C@@]2(C)C3[C@@H](O)C=C4C(CC[C@H](O)C4(C)C)[C@]3(C=O)CC[C@]12C | IIIB |  |  |  | 12.5 µg/mL
S=C(NCCc1ccccn1)Nc1ccc(Br)cn1 | IIIB |  | p24 |  | <0.015 µM
CC(C)(C)[Si](C)(C)OC[C@H]1O[C@@H](n2cnc3nc[nH]c(=O)c32)[C@H](O[Si](C)(C)C(C)(C)C)C12OS(=O)(=O)C=C2N | IIIB |  | syncytia |  | 0.4 µg/mL
Cc1cn([C@H]2C[C@H](N=[N+]=[N-])[C@@H](CO)O2)c(=O)[nH]c1=O | RF |  | cytopathic effect / XTT |  | 10 µM
CCN1c2ncc(CCOc3ccc(C(=O)O)c4ccccc34)cc2C(=O)Nc2c(C)cc(Cl)nc21 |  | RT-K103N Y181C | p24 |  | <0.1 µM
Cc1ccc(NC(=S)OCCN2C(=O)c3ccccc3C2=O)cc1 | IIIB |  | p24 |  | <0.015 µM
CCO[C@@H]1O[C@]23CC(=O)C4[C@@]1(CC[C@]1(C)[C@@H]([C@H](C)CC(C)=O)CC[C@@]41C)C2CCC(=O)C3(C)C | IIIB |  |  |  | 7.2 µg/mL
CC(=O)O[C@@H]1[C@@H](C)[C@@]2(O)[C@@H](C=C(CO)C[C@]3(O)C(=O)C(C)=C[C@@H]23)[C@@H]2C(C)(C)[C@]12OC(C)=O | IIIB |  | p24 / ELISA |  | 0.3236 µM
CC(=O)C[C@@H](C)[C@H]1CC[C@@]2(C)C3C(=O)C[C@@]45OC[C@]3(CC[C@]12C)C4CCC(=O)C5(C)C | IIIB |  |  |  | 21.6 µg/mL
Cn1cnc2c(ncn2[C@@H]2O[C@H](CO[Si](C)(C)C(C)(C)C)C3(OS(=O)(=O)C=C3N)[C@H]2O[Si](C)(C)C(C)(C)C)c1=O | IIIB |  | syncytia |  | 0.1 µg/mL
O=c1[nH]cnc2c1ncn2[C@H]1CC[C@@H](CO)O1 | RF |  | p24 |  | 0.9 µM
CCN1c2ncccc2-c2ncc(C)n2-c2ccc(OC)nc21 |  |  | syncytia | 7 d | <0.01 µM
CCCCCCCCCCCCC(=O)O[C@@H]1[C@@H](C)[C@@]2(O)[C@@H](C=C(CO)C[C@]3(O)C(=O)C(C)=C[C@@H]23)[C@@H]2C(C)(C)[C@]12OC(=O)CCCCCCCCCCCC | IIIB |  | p24 / ELISA |  | 18.67 µM
Cc1ccnc2c1NC(=O)c1cccnc1N2C1CC1 | HXB2 |  | p24 |  | 0.06 µM
CCN1c2ncc(CCOc3ccc(C(=O)O)c4c3CCCC4)cc2C(=O)N(C)c2cccnc21 | WT |  | p24 |  | <0.1 µM
C=CC(C)(C)c1cc2cc3c(c(CC=C(C)C)c2oc1=O)O[C@H](C(C)(C)O)C3 |  |  | MTT / syncytia |  | 0.29 µM
CCCC(=O)OCC1=C[C@H]2[C@@H]3C(C)(C)[C@]3(OC(=O)CCC)[C@H](OC(=O)/C=C/c3ccc(OC)c(OC(C)=O)c3)[C@@H](C)[C@]2(O)[C@@H]2C=C(C)C(=O)[C@@]2(O)C1 | IIIB |  | p24 / ELISA |  | 293.2 µM
Cc1cn(-c2ccccc2[N+](=O)[O-])c2ccccc12 | IIIB |  | syncytia |  | 12.09 µg/mL
CCN1c2ncc(CCOc3ccc(CCC(=O)NN)c4ccccc34)cc2C(=O)N(C)c2cccnc21 |  | RT-K103N Y181C | p24 |  | 0.1–1 µM
CC1=C(C(=O)Nc2ccc(Cl)c(C(=O)OC(C)C)c2)SCCO1 | RF |  |  |  | 2.1 µM
O=C1c2ccccc2C(=O)N1CCOC(=S)Nc1ccc(Br)cc1 | IIIB |  | p24 |  | <0.015 µM

Repeating the final 4 entries:

smiles | strain | changes | method | conditions | result
Cc1cn(-c2ccccc2[N+](=O)[O-])c2ccccc12 | IIIB |  | syncytia |  | 12.09 µg/mL
CCN1c2ncc(CCOc3ccc(CCC(=O)NN)c4ccccc34)cc2C(=O)N(C)c2cccnc21 |  | RT-K103N Y181C | p24 |  | 0.1–1 µM
CC1=C(C(=O)Nc2ccc(Cl)c(C(=O)OC(C)C)c2)SCCO1 | RF |  |  |  | 2.1 µM
O=C1c2ccccc2C(=O)N1CCOC(=S)Nc1ccc(Br)cc1 | IIIB |  | p24 |  | <0.015 µM